In article PMC7761982, “FDA-Approved Drugs with Potent In Vitro Antiviral Activity against Severe Acute Respiratory Syndrome Coronavirus 2” (Pharmaceuticals, 2020):
Where a name gives a salt, the structure may show the parent alone. Read-outs that look alike come from different tables or passages of the source.

System: NRC-03-nhCoV
Format: cell-based, SARS-CoV-2
[1] = selectivity index, antiviral activity relative to cellular toxicity (CC50/IC50)

Compound | SI (ratio CC50 / IC50) | SI [1]
CC(=O)Oc1ccccc1C(=O)O [Acetyl Salicylic acid “Aspirin”, Acetyl Salicylic acid] | 103.21 | –
NCC[C@H](O)C(=O)N[C@@H]1C[C@H](N)[C@@H](O[C@H]2O[C@H](CN)[C@@H](O)[C@H](O)[C@H]2O)[C@H](O)[C@H]1O[C@H]1O[C@H](CO)[C@@H](O)[C@H](N)[C@H]1O.O=S(=O)(O)O.O=S(=O)(O)O [Amikacin sulphate] | 146.10 | –
CC1(C)S[C@@H]2[C@H](NC(=O)[C@H](N)c3ccc(O)cc3)C(=O)N2[C@H]1C(=O)O [Amoxicillin] | 38.12 | –
CC1(C)S[C@@H]2[C@H](NC(=O)Cc3ccccc3)C(=O)N2[C@H]1C(=O)O.CC1(C)S[C@@H]2[C@H](NC(=O)Cc3ccccc3)C(=O)N2[C@H]1C(=O)O.c1ccc(CNCCNCc2ccccc2)cc1 [Benzathine penicillin] | 46.15 | –
CCN1CCN(C(=O)N[C@@H](C(=O)N[C@@H]2C(=O)N3C(C(=O)O)=C(CSc4nnnn4C)CS[C@H]23)c2ccc(O)cc2)C(=O)C1=O [Cefoperazone] | 5.58 | –
CO/N=C(\C(=O)N[C@@H]1C(=O)N2C(C(=O)O)=C(COC(C)=O)CS[C@H]12)c1csc(N)n1 [Cefotaxime] | 73.85 | –
CC(C)(O/N=C(\C(=O)N[C@@H]1C(=O)N2C(C(=O)[O-])=C(C[n+]3ccccc3)CS[C@H]12)c1csc(N)n1)C(=O)O [Ceftazidime] | 120.37 | –
CO/N=C(\C(=O)N[C@@H]1C(=O)N2C(C(=O)O)=C(CSc3nc(=O)c(=O)[nH]n3C)CS[C@H]12)c1csc(N)n1 [Ceftriaxone] | 27.63 | –
Cc1ccc(-c2cc(C(F)(F)F)nn2-c2ccc(S(N)(=O)=O)cc2)cc1 [Celecoxib] | 10.78 | –
O=C(N[C@H](CO)[C@H](O)c1ccc([N+](=O)[O-])cc1)C(Cl)Cl [Chloramphenicol] | 2.00 | –
CN(C)CCC(c1ccc(Cl)cc1)c1ccccn1 (stereo not drawn) [Chlorpheniramine maleate] | 129.35 | –
CC(C)C(=O)OCC(=O)[C@@]12O[C@H](C3CCCCC3)O[C@@H]1C[C@H]1[C@@H]3CCC4=CC(=O)C=C[C@]4(C)[C@H]3[C@@H](O)C[C@@]12C [Ciclesonide] | 28.73 | –
C[C@@H]1C[C@H]2[C@@H]3CCC4=CC(=O)C=C[C@]4(C)[C@@]3(F)[C@@H](O)C[C@]2(C)[C@@]1(O)C(=O)CO [Dexamethasone] | 15.51 | –
O=C(O)Cc1ccccc1Nc1c(Cl)cccc1Cl [Diclofenac sodium] | 1.44 | –
C[C@H]1c2cccc(O)c2C(=O)C2=C(O)[C@]3(O)C(=O)C(C(N)=O)=C(O)[C@@H](N(C)C)[C@@H]3[C@@H](O)[C@@H]21 [Doxycycline] | 124.73 | –
Cc1onc(-c2c(F)cccc2Cl)c1C(=O)N[C@@H]1C(=O)N2[C@@H]1SC(C)(C)[C@@H]2C(=O)O [Flucloxacillin] | 6.12 | –
CCC(=O)O[C@]1(C(=O)SCF)[C@H](C)C[C@H]2[C@@H]3C[C@H](F)C4=CC(=O)C=C[C@]4(C)[C@@]3(F)[C@@H](O)C[C@@]21C [Fluticasone Propionate] | 18.74 | –
C[C@]12CCC(=O)C=C1CC[C@@H]1[C@@H]2[C@@H](O)C[C@@]2(C)[C@H]1CC[C@]2(O)C(=O)CO [Hydrocortisone] | 87.10 | –

Compound | SI (ratio CC50 / IC50) | SI [1]
CC(C)Cc1ccc(C(C)C(=O)O)cc1 (stereo not drawn) [Ibuprofen] | 13.14 | –
COc1ccc2c(c1)c(CC(=O)O)c(C)n2C(=O)c1ccc(Cl)cc1 [Indomethacin] | 78.93 | –
O=C(c1ccccc1)c1ccc2n1CCC2C(=O)O (stereo not drawn) [Ketorolac Tromethamine] | 13.31 | –
C[C@H]1COc2c(N3CCN(C)CC3)c(F)cc3c(=O)c(C(=O)O)cn1c23 [Levofloxacin] | 155.78 | –
CC(=O)NC[C@H]1CN(c2ccc(N3CCOCC3)c(F)c2)C(=O)O1 [Linezolid] | 50.1 | –
Cc1cnc(NC(=O)C2=C(O)c3ccccc3S(=O)(=O)N2C)s1 [Meloxicam] | 21.21 | –
Cc1c(N(C)CS(=O)(=O)[O-])c(=O)n(-c2ccccc2)n1C.[Na+] [Metamizole sodium] | 63.29 | –
C[C@H]1C[C@@H]2[C@H]([C@@H](O)C[C@@]3(C)[C@H]2CC[C@]3(O)C(=O)CO)[C@@]2(C)C=CC(=O)C=C12 [Methylprednisolone] | 36.97 | –
COc1c(N2C[C@@H]3CCCN[C@@H]3C2)c(F)cc2c(=O)c(C(=O)O)cn(C3CC3)c12 [Moxifloxacin] | 183.32 | –
c1ccc2c(CC3=NCCN3)cccc2c1 [Naphazoline] | 66.82 | –
O=C(Nc1ccc([N+](=O)[O-])cc1Cl)c1cc(Cl)ccc1O [Niclosamide] | – | 1278.81
CC(=O)Oc1ccccc1C(=O)Nc1ncc([N+](=O)[O-])s1 [Nitazoxanide] | – | 515.62
O=C1CN(/N=C/c2ccc([N+](=O)[O-])o2)C(=O)N1 [Nitrofurantoin] | 36.94 | –
C[C@@H]1[C@H](O)[C@@H](C)/C=C/C=C/CC/C=C/C=C/C=C/C=C/C(O[C@H]2O[C@H](C)[C@@H](O)[C@H](N)[C@@H]2O)CC2O[C@](O)(CC(O)C(O)CCC(O)CC(O)CC(O)CC(=O)O[C@H]1C)CC(O)C2C(=O)O (stereo partly drawn) [Nystatin] | 1.14 | –
CC(=O)Nc1ccc(O)cc1 [Paracetamol] | <1 | –
CN1C(C(=O)Nc2ccccn2)=C(O)c2ccccc2S1(=O)=O [Piroxicam] | 218.64 | –
OCc1cc(C(O)CNCCCCCCOCCCCc2ccccc2)ccc1O (stereo not drawn) [Salmeterol] | 2.73 | –
Neomycin | 45.98 | –
